Compound potency records, mixed from different reports. Data source: NIAID ChemDB in PubChem.

All rows: tests in culture; species: Mycobacterium avium complex

A number after MIC or MFC names an inhibition level or a share of isolates. Neighbouring rows are from separate reports.

O=C1c2cc(Br)ccc2-n2c1nc1ccncc1c2=O ; strain: 19075 ; read-out: MIC ; value: 0.25 µg/mL
CC[C@H]1OC(=O)[C@H](C)[C@@H](OC2C[C@@](C)(OC)[C@@H](OC(=O)CC3CCCCC3)[C@H](C)O2)[C@H](C)[C@@H](O[C@@H]2O[C@H](C)C[C@H](N(C)C)[C@H]2O)C(C)(O)C[C@@H](C)/C(=N\OCCCOc2ccccc2)[C@H](C)[C@@H](O)[C@]1(C)O ; strain: 20092 (clarithromycin-resistant) ; read-out: MIC ; value: 3.13 µg/mL
COc1ccc(Sc2ncnc3nc[nH]c23)c(OC)c1 ; strain: NJ211 ; read-out: MIC ; value: >12.8 µg/mL
CCCCO/N=C1\[C@H](C)CC(C)(O)[C@H](O[C@@H]2O[C@H](C)C[C@H](N(C)C)[C@H]2O)[C@@H](C)[C@H](OC2C[C@@](C)(OC)[C@@H](O)[C@H](C)O2)[C@@H](C)C(=O)O[C@H](CC)[C@@](C)(O)[C@H](O)[C@H]1C ; strain: 20096 (clarithromycin-resistant) ; read-out: MIC ; value: >50 µg/mL
CC[C@H]1OC(=O)[C@H](C)[C@@H](O[C@H]2C[C@@](C)(OC)[C@@H](OC(C)=O)[C@H](C)O2)[C@H](C)[C@@H](OC2O[C@H](C)C[C@H](N(C)C)[C@H]2OC(=O)NC)C(C)(O)C[C@@H](C)/C(=N\OCCCC2CCCCC2)[C@H](C)[C@@H](O)[C@]1(C)O ; strain: 20034 ; read-out: MIC ; value: 12.5 µg/mL
COc1ccc(CSc2ncccn2)cc1 ; strain: NJ211 ; read-out: MIC ; value: >12.8 µg/mL
CS(=O)(=O)c1ccc2c(c1)C(=O)c1nc3ccncc3c(=O)n1-2 ; strain: 19075 ; read-out: MIC ; value: >25 µg/mL
CC[C@H]1OC(=O)[C@H](C)[C@@H](O[C@H]2C[C@@](C)(OC)[C@@H](OC(C)=O)[C@H](C)O2)[C@H](C)[C@@H](OC2O[C@H](C)C[C@H](N(C)C)[C@H]2OC(=O)NCC(=O)NC)C(C)(O)C[C@@H](C)/C(=N\OCCCC2CCCCC2)[C@H](C)[C@@H](O)[C@]1(C)O ; strain: 20096 ; read-out: MIC ; value: 0.78 µg/mL
COc1ccc(Sc2ncccn2)cc1 ; strain: NJ211 ; read-out: MIC ; value: >12.8 µg/mL
CCCCCCCCCCCCCCN(C)C(=O)O[C@H]1C(O[C@@H]2[C@@H](C)[C@H](O[C@H]3C[C@@](C)(OC)[C@@H](OC(C)=O)[C@H](C)O3)[C@@H](C)C(=O)O[C@H](CC)[C@@](C)(O)[C@H](O)[C@@H](C)/C(=N/OCCCC3CCCCC3)[C@H](C)CC2(C)O)O[C@H](C)C[C@@H]1N(C)C ; strain: 20092 ; read-out: MIC ; value: 0.2 µg/mL
Clc1ccc(Nc2cc3nc4ccccc4n(-c4ccc(Cl)c(Cl)c4)c-3cc2=NC2CCNCC2)cc1Cl ; read-out: MBC ; setting: inside macrophages ; value: >4 µg/mL
Cc1cccc(C)c1Sc1nc(Cl)nc2nc[nH]c12 ; strain: NJ211 ; read-out: MIC ; value: >12.8 µg/mL
CC[C@H]1OC(=O)[C@H](C)[C@@H](O[C@H]2C[C@@](C)(OC)[C@@H](OC(C)=O)[C@H](C)O2)[C@H](C)[C@@H](O[C@@H]2O[C@H](C)C[C@H](N(C)C)[C@H]2O)C(C)(O)C[C@@H](C)/C(=N\OCCCC2CCCCC2)[C@H](C)[C@@H](O)[C@]1(C)O ; strain: 27 strains ; read-out: MIC50 ; value: 1.56 µg/mL
N[C@@H]1CN(c2c(F)cc3c(=O)c(C(=O)O)cn([C@@H]4C[C@@H]4F)c3c2Cl)CC12CC2 ; strain: 18 strains ; read-out: MIC50 ; value: 1.56 µg/mL
O=C1c2ccccc2-n2c1nc1ccccc1c2=O ; read-out: MIC ; value: 4 µg/mL
CC1COc2c(N3CCN(C)CC3)c(F)cc3c(=O)c(C(=O)O)cn1c23 ; strain: 18 strains ; read-out: MIC90 ; value: 50 µg/mL
CCCCCCCCNC(=O)O[C@H]1C(O[C@@H]2[C@@H](C)[C@H](O[C@H]3C[C@@](C)(OC)[C@@H](OC(C)=O)[C@H](C)O3)[C@@H](C)C(=O)O[C@H](CC)[C@@](C)(O)[C@H](O)[C@@H](C)/C(=N/OCCCC3CCCCC3)[C@H](C)CC2(C)O)O[C@H](C)C[C@@H]1N(C)C ; strain: 20096 ; read-out: MIC ; value: 0.2 µg/mL
CCCCCCc1ccc2c(c1)C(=O)c1nc3ccncc3c(=O)n1-2 ; strain: 19075 ; read-out: MIC ; value: <0.2 µg/mL
COc1ccc(OC)c(Sc2nc(Cl)nc3nc[nH]c23)c1.O ; strain: NJ211 ; read-out: MIC ; value: >12.8 µg/mL
CCCCCCCCO[C@@H]1O[C@H]([C@@H](COC)O[C@H]2O[C@H](CO)[C@@H](O)[C@@H]2O)[C@H](OC)[C@H]1OC ; strain: NJ211 ; read-out: MIC ; value: >128 µg/mL
CO[C@H]1/C=C/O[C@@]2(C)Oc3c(C)c(O)c4c(O)c(c(/C=N/N5CCN(C6CCCC6)CC5)c(O)c4c3C2=O)NC(=O)/C(C)=C\C=C\[C@H](C)[C@H](O)[C@@H](C)[C@@H](O)[C@@H](C)[C@H](OC(C)=O)[C@@H]1C ; strain: T ; read-out: MIC ; value: 0.25 µg/mL
O=C1c2cc(F)ccc2-n2c1nc1ccncc1c2=O ; strain: 19075 ; read-out: MIC ; value: 5 µg/mL
CCNNC(=O)O[C@H]1[C@H](O[C@@H]2[C@@H](C)[C@H](O[C@H]3C[C@@](C)(OC)[C@@H](OC(C)=O)[C@H](C)O3)[C@@H](C)C(=O)O[C@H](CC)[C@@](C)(O)[C@H](O)[C@@H](C)/C(=N/OCCCC3CCCCC3)[C@H](C)CC2(C)O)O[C@H](C)C[C@@H]1N(C)C ; strain: 20092 (clarithromycin-resistant) ; read-out: MIC ; value: 1.56 µg/mL
CCCCCCCCO[C@@H]1O[C@H]([C@@H](COC)O[C@H]2O[C@H](COC(=O)c3ccccc3)[C@@H](OC(=O)c3ccccc3)[C@@H]2OC(=O)c2ccccc2)[C@H](OC)[C@H]1OC ; strain: NJ3404 ; read-out: MIC ; value: >128 µg/mL
Cc1c(F)c(N2CCNC(C)C2)cc2c1c(=O)c(C(=O)O)cn2C1CC1 ; strain: 41 clinical isolates ; read-out: MIC50 ; value: 4 µg/mL
O=C1c2cc(C(F)(F)F)ccc2-n2c1nc1ccncc1c2=O ; strain: 19075 ; read-out: MIC ; value: 0.5 µg/mL
CCCCC(=O)O[C@H]1[C@H](C)[C@@H](O[C@@H]2O[C@H](C)C[C@H](N(C)C)[C@H]2O)C(C)(O)C[C@@H](C)/C(=N\OCCCOc2ccccc2)[C@H](C)[C@@H](O)[C@](C)(O)[C@@H](CC)OC(=O)[C@@H]1C ; strain: 20092 (clarithromycin-resistant) ; read-out: MIC ; value: 6.25 µg/mL
CCCCCCCCc1ccc2c(c1)C(=O)c1nc3ccncc3c(=O)n1-2 ; strain: 19075 ; read-out: MIC ; value: 0.06 µg/mL
O=c1nc(SCc2cccc(Br)c2)c2[nH]cnc2[nH]1 ; strain: NJ211 ; read-out: MIC ; value: >12.8 µg/mL
CCN=c1cc2n(-c3ccc(Cl)cc3)c3ccc(Cl)cc3nc-2cc1Nc1ccc(Cl)cc1 ; read-out: MBC ; setting: inside macrophages ; value: >4 µg/mL